In patent publication US20160355553A1 (Janssen / Centocor, published 2016):

How the values were obtained:
Experiment in all cases: FACS on HEK293F [D00014 FIG. 10B]
HK68 H3m2-cl9+10+11 = HK68 H3m2-cl9+10+11 (influenza A virus H3N2, UniProt Q91MA7 17-566)
HK68 H3m2-cl9+10 = HK68 H3m2-cl9+10 (influenza A virus H3N2, UniProt Q91MA7 17-566)
[1] = target: HK68 H3m2-cl9+10+11+13-tri (influenza A virus H3N2, UniProt Q91MA7 17-566)
[2] = target: HK68 H3m2-cl9+10+11+12-tri (influenza A virus H3N2, UniProt Q91MA7 17-566)
[3] = target: HK68 H3m2-cl9+10+11+13-GCN4 (influenza A virus H3N2, UniProt Q91MA7 17-566)
HK68 H3m2-cl9+10+11+12 = HK68 H3m2-cl9+10+11+12 (influenza A virus H3N2, UniProt Q91MA7 17-566)
HK68 H3m2-cl9+10+12 = HK68 H3m2-cl9+10+12 (influenza A virus H3N2, UniProt Q91MA7 17-566)
HK68 H3m2-cl9+10+11+13 = HK68 H3m2-cl9+10+11+13 (influenza A virus H3N2, UniProt Q91MA7 17-566)
HK68 H3m2-cl9 = HK68 H3m2-cl9 (influenza A virus H3N2, UniProt Q91MA7 17-566)

Measured: binding result

B1: CR8057 (antibody, V domains shown)
VH: EVQLVESGGGLVQPGGSLRLSCAASGFTDSVIFMSWVRQAPGKGLECVSIIYIDDSTYYADSVKGRFTISRHNSMGTVFLEMNSLRPDDTAVYYCATESGDFGDQTGPYHYYAMDV
VL: QSALTQPASVSGSPGQSITISCTGSSGDIGGYNAVSWYQHHPGKAPKLMIYEVTSRPSGVSDRFSASRSGDTASLTVSGLQAEDEAHYYCCSFADSNILI
no binding (tested: 5 ug/ml): HK68 H3m2-cl9+10+11

B2: CR9114 (antibody, V domains shown)
VH: QVQLVQSGAEVKKPGSSVKVSCKSSGGTSNNYAISWVRQAPGQGLDWMGGISPIFGSTAYAQKFQGRVTISADIFSNTAYMELNSLTSEDTAVYFCARHGNYYYYSGMDVWGQGTTVTVSS
VL: SYVLTQPPAVSGTPGQRVTISCSGSDSNIGRRSVNWYQQFPGTAPKLLIYSNDQRPSVVPDRFSGSKSGTSASLAISGLQSEDEAEYYCAAWDDSLKGAVFGGGTQLTVL
no binding (tested: 5 ug/ml): HK68 H3m2-cl9+10 | [1] | HK68 H3m2-cl9+10+11 | [2] | [3] | HK68 H3m2-cl9+10+11+12 | HK68 H3m2-cl9+10+12 | HK68 H3m2-cl9+10+11+13 | HK68 H3m2-cl9
